In patent US11091428B2 (HAPLOGEN GMBH, priority 2016, dated 2021):

Tested on: picornaviruses (CVB1, HRV-A2, HRV-A23, EV-68)
Assay: Anti-picornavirus cytopathic effect (CPE) reduction assay on HeLa H1 cells
Conditions: read-out: EC50 values of the compounds determined in the anti-picornavirus assay, 48 h, category from averaging the EC50 values from four picornaviruses (CVB1, HRV-A2, HRV-A23, EV68)
Experimental: The antiviral activity of selected compounds was tested using a cytopathic effect (CPE) reduction assay on HeLa H1 cells (ATCC CRL-1958). Briefly, cells were seeded in 96-well dishes (2×10^4 cells/well) in DMEM medium (Life technologies) supplemented with 10% FBS and PenStrep solution (100 U/mL Penicillin and 100 μg/mL streptomycin) and incubated at 37° C., 5% CO2 ovemight. The next day, cells were pre-treated with serial dilutions of the compound in DMEM medium supplemented with 2% FBS and PenStrep for 2 h at 37° C., 5% CO2. […] After that, plates were equilibrated to RT and subsequently, fluorescence was recorded (Excitation wavelength: 560 nm; emission wavelength: 590 nm) using a SpectraMax M5 multimode plate reader. Viability of cells was calculated according to the formula: V=(RFUCpd−RFUVeh/(RFUM−RFUVeh), where RFUCpd refers to infected and compound-treated cells, RFUVeh to infected and vehicle-treated cells and RFUM to uninfected and vehicle treated cells. Half-maximal effective concentrations (EC50) were calculated by non-linear regression analysis using the drc package in R (R Development. Core Team, 2005). EC50 categories as presented in Table 2 were calculated by averaging the EC50 values from four picornaviruses (CVB1, HRV-A2, HRV-A23, EV68).

With `CC(C)C(=O)NCCCNC(=O)C(=O)[C@H]1CCC(=O)N1Cc1ccccc1` as the molecule, how does the EC50 read?
The EC50 was 1 to 10 µM.
